Experiment [1] relates to EcoHIV-infected mouse brain. Put plainly: Immunoblotting of LRP-1, NF-κB and Akt in brains of EcoHIV-infected mice. The format is in vivo, C57BL/6J mice. As for the experimental part: Proteins in brain cell lysates and postmortem brain homogenates were separated by SDS-PAGE, transferred to PVDF membranes, and subsequently incubated with primary antibodies from Santa Cruz Biotechnology (Dallas, TX, USA), including NF-κB at 1:200 dilution (catalog # sc-8008) and β-actin at 1:200 dilution (catalog # sc-47778). Antibodies from Abcam (Boston, MA, USA), including Akt at dilution 1:500 (catalog # ab-38449) and LRP-1 at dilution 1:50,000 (catalog # ab-92544). After primary antibodies, membranes were incubated with horseradish peroxidase-conjugated secondary antibodies followed by exposure to SuperSignal West Femto Substrate from Thermo Scientific (Waltham, MA, USA). Membranes were visualized using a ChemiDoc imaging system from Bio-Rad (Hercules, CA, USA) and protein expression was calculated using Image J software from NIH (Bethesda, MD, USA).
C57BL/6J mice (Jackson Laboratory, Bay Harbor, ME, USA) were bred in the animal facility at Florida International University. Mice were placed 3–5 per cage and maintained in a controlled temperature and humidity room. The animals were cared for in accordance with the Principles of Animal Care outlined by the National Institutes of Health and approved by the Institutional Animal Care and Use Committee of Florida International University. Protocol Approval: IACUC-21-007-CR01. The EcoHIV-NDK plasmid used was provided by Dr. David Volsky at Mount Sinai school of medicine. The plasmid was transfected in HEK293T cells to generate EcoHIV stocks as previously described. For the in vivo experiments, male mice between the ages of 4–6 months were administrated 1 mL of either saline or 1 × 10^6 pg p24 units of EcoHIV by intraperitoneal (IP) cavity. After 3–4 weeks, animals received cART daily via IP administration. The cART regimen consisted of Emtricitabine, Ritonavir, and Atazanavir at a concentration of 100 mg/kg each, based on previously published literature by others. A subset of cART treated animals received SP16 every other day at concentration of 10 μg/kg, via the intranasal route, as described previously by us. After treatments (at day 5), mice were sacrificed and whole brains, excluding the brainstem and the olfactory bulb, were collected. Half of the recovered brain hemisphere was used for immunohistochemistry and LC-MS/MS while the other half was homogenized and used for biochemical assays. For protein biochemical assays, postmortem brains were homogenized in cell lysis buffer (Thermo Scientific, Waltham, MA, USA) using a bead-beater apparatus (MagNA Lyser, Roche, Indianapolis). Bioavailability of SP16 in the brain was monitored with LC-MS/MS using 703 (triple charged) parent ion and its two daughter ions 129.1 and 84.1. For the in vitro murine experiments, primary mixed glia cultures composed of astrocytes (~80% GFAP immune-positive cells) and microglia (~20% Iba-1 immuno-positive cells) were recovered from midbrains of C57BL/6J pups scarified according to IACUC guidelines as described previously. Cells were seeded in 24-well plates coated with poly-L-lysine (0.1 mg/mL) and maintained for 5–10 days at 37 °C and 5% CO2 [39, 40, 41, 42]. Cells were maintained in their respective growth medium, supplemented with glucose (2 mg/mL) procured from Sigma Aldrich (St. Louis, MO, USA), Na2HCO3 (6 mM) procured from Invitrogen (Waltham, MA, USA), fetal bovine serum-FBS (10%) procured from Hyclone (Logan, UT, USA), and penicillin/streptomycin (1%) procured from Invitrogen (Waltham, MA, USA). […]
(In general: A western blot detects proteins with antibodies after separation by electrophoresis.)

A further experiment has as its system NLRP3 inflammasome. The conditions noted are these: macrophages in vitro; cited from earlier work.
Where [2] appears, read: combination SP16 and cART, brain immunoblotting.
Where [3] appears, read: label cART = cART alone, label SP16 = cART in combination with SP16.

For the compound `CCCC[C@H](NC(=O)[C@H](CC(C)C)NC(=O)[C@H](Cc1ccccc1)NC(=O)[C@@H](NC(=O)[C@H](Cc1ccccc1)NC(=O)[C@@H]1CCCN1C(=O)[C@H](CCCCN)NC(=O)[C@H](CC(N)=O)NC(=O)[C@H](Cc1ccccc1)NC(=O)[C@H](CCCCN)NC(=O)[C@@H](NC(C)=O)C(C)C)C(C)C)C(=O)N[C@H](C(=O)N[C@@H](CCC(=O)O)C(=O)N[C@@H](CCC(N)=O)C(=O)N[C@@H](CC(N)=O)C(=O)N[C@H](C(=O)N[C@@H](CCCCN)C(N)=O)[C@@H](C)O)[C@@H](C)CC` [SP16], in experiment [1] (setting [2]), the “decrease in NF-κB as compared to cART alone” value is “about 86%” and the “increase in Akt as compared to cART” value is “about 18%”. Further, in experiment [1] (setting [3]), the LRP-1 expression entry is on record as “significant increase”, the “expression of Akt” value was “increase” and the “protein expression level of NF-κB” value is listed as “significant decrease”. Also, the “formation of the NLRP3 inflammasome” value with NLRP3 inflammasome is given as “reduction”.

The record behind these values is article PMC9954444, “SERPIN-Derived Small Peptide (SP16) as a Potential Therapeutic Agent against HIV-Induced Inflammatory Molecules and Viral Replication in Cells of the Central Nervous System” (Cells, 2023).
